From patent US7968297B2, “Method for identification, isolation and production of antigens to a specific pathogen” (Intercell AG, priority 2001, dated 2011)

Assays:
[1] = test system: purified IgGs from human sera; experiment: Ribosome display screening with purified human IgGs; type: binding; conditions: for No. of selected clones per ORF and screen: D: Ribosome display: D; for No. of selected clones per ORF and screen: screen D: ribosome display
[2] = test system: antibodies in human serum; experiment: Bacterial surface display library screening by MACS with biotinylated human serum; type: binding; conditions: for No. of selected clones per ORF and screen: A: Bacterial surface display: A, LSE150 library in fhuA with patient sera 2 (957); for Location of identified Immunogenic region: ORFs selected by bacterial surface display (screens A, B, C; some also D); for No. of selected clones per ORF and screen: B: Bacterial surface display: B, LSE70 library in lamB with patient sera 2 (1420)
[3] = ORFs selected by ribosome display only (screen D)
[4] = LSE150 in pMAL4.31 with P2 (1235)
[5] = LSA250/1 library with IC sera (1686)
[6] = identified by ribosome display (screen D)

With “ARF0172 (QVLKMLQNILLLMLLLLMLKIKVLIYLIMTLLNQFRDMVLKLRFINNKSLWAIEN; listed as Staphylococcus epidermidis)” the “Location of identified Immunogenic region” value (shortened to “Location”) [1, 3] was “aa 3-32” and the “No. of selected clones per ORF and screen: D” value [1, 4] was “D: 6”.

With “CRF1845 (MLLSYFIILISFLCILLTFIYFFPLTSMTFFFYSYFRFV)” the “No. of selected clones per ORF and screen: D” value [1, 5] was “D: 272” and the “Location” value [1, 6] was “aa 1-17”.

“CRF0007 (LKNILRIVFIAGLTVFFSGPGQTYSNAAFIDEYIQTFGWSRTEV)” was tested, and the “Location” value [1, 3] was “aa 7-44” and the “No. of selected clones per ORF and screen: D” value [1, 4] was “D: 3”.

CRFN1 (IENADDNFNQLYENAKPLKENIE) was tested, and the “No. of selected clones per ORF and screen: D” value [1, 5] was “D: 4” and the “Location” value [1, 6] was “aa 94-116”.

For YycH protein [compound 2466], the “No. of selected clones per ORF and screen” value [1, 5] was “D: 14”.

For “CRF0006 (IFISTCGCSTTSAWKAEVLPLRVRFPSPAPF)”, the “Location” value [1, 3] was “aa 10-22” and the “No. of selected clones per ORF and screen: D” value [1, 4] was “D: 3”.

In the case of “Conserved hypothetical protein [compound 2664]”, the “No. of selected clones per ORF and screen” value [1, 5] is reported as “D: 35”.

With Hypothetical protein [compound 2740] the “No. of selected clones per ORF and screen” value [1, 5] was “D: 4”.

With “CRF2553 (LIVISNVIAIILIFICFVCTIILLIIFFGFCLFMRRFIFLFLVIT)” the “No. of selected clones per ORF and screen: D” value [1, 5] was “D: 4” and the “Location” value [1, 6] was “aa 1-20”.

“CRF0003 (RSVPHIVVLTMRIIASVLLVIVGFSLSVSCA)” was tested, and the “Location” value [1, 3] was “aa 4-31” and the “No. of selected clones per ORF and screen: D” value [1, 4] was “D: 3”.

In the case of “Conserved hypothetical protein [compound 2815]”, the “No. of selected clones per ORF and screen” value [1, 5] is reported as “D: 21”.

In the case of CRF0001 (RLRYTSYIIKLAATDAFKLLTCPTIGILI), the “Location” value [1, 3] is reported as “aa 5-21” and the “No. of selected clones per ORF and screen: D” value [1, 4] is reported as “D: 3”.

With “CRF0008 (RNSNQMYQTFTADIVLIFMIIVLGGLVVQVPMPILAGIMVMVSETIYCLHL)” the “Location” value [1, 3] was “aa: 9-44” and the “No. of selected clones per ORF and screen: D” value [1, 4] was “D: 4”.

With “CRF2207 (MTCEKLENFLTSSKAGTNDNTNKGKCHNNGLF)” the “No. of selected clones per ORF and screen: D” value [1, 5] was “D: 3” and the “Location” value [1, 6] was “aa 17-39”.

B1: CRF2307 (protein)
chain: SSTACIKSKIFCSYSASPSNAFNAEPAITGTSSPGKSYSLNKSRTSISTNSNNSSSSTMSTLFKNTTNAGTPTLRDNKMCSRVCGIGPSAADTTKIPPSI
With B1 the “No. of selected clones per ORF and screen: A” value [2] was “A: 19” and the “Location” value [2] was “aa 41-87”.

B2: ORF2671 (protein, listed as Staphylococcus epidermidis)
chain: VKHSKKLLLCISFLLITFFIGGCGFMNKDDGKETEIKQNFNKMLNVYPTKNLENFYDKEGYRDEEFDKDDKGTWIVHSKMVIEPKGKNMESRGMVLFINRNTRTSKGYFIVNEIEKDRKGRPINNKKKYPVKMKNNKIIPTKPISNDKLKKEIENFKFFVQYGNFKDIKNYKDGDISYNPNVPSYSAKYQLSNNEYNVQQLRKRYDIPTKKVPKLLLKGDGDLKGSSVGSKNLEFTFIENKEENIYFTDSVLFSPSEDNES
For B2, the “No. of selected clones per ORF and screen: A” value [2] was “A: 44,”, the “No. of selected clones per ORF and screen: B” value [2] was “B: 14” and the “Location” value [2] was “aa 23-68”.

B3: ORF2694 (protein, listed as Staphylococcus epidermidis)
chain: MKHSSKIIVFVSFLILTIFIGGCGFINKEDSKEAEIKQNFNKTLSMYPTKNLEDFYDKEGYRDEEFDKDDKGTWIINSKMIVEPKGEEMEARGMVLRINRNTRTAKGNFIIKRITENNKGIPDVKDKKYPVKMEHNKIIPTKQIKDKKLKKEIENFKFFVQYGNFKNLKDYKDGEISYNPNVPSYSAQYQLNNYDNNVKQLRKRYDIPTNQAPKLLLKGTGDLKGSSVGYKHLEFTFVENKKENIYFTDSINFNPSRGN
In the case of B3, the “No. of selected clones per ORF and screen: A” value [2] is reported as “A: 19,”, the “No. of selected clones per ORF and screen: B” value [2] is reported as “B: 30” and the “Location” value [2] is reported as “aa 25-82”.

B4: CRF2248 (protein)
chain: LSSSKALPSTSTFGNTAPNHLGRYHEALPKSFVNAGINVIRTTNASNNTPKPNAIPIDLIALSSWKTNAMNTLNIISAAATITGPLSLIPTRIE
In the case of B4, the “No. of selected clones per ORF and screen: C” value ([2]; Bacterial surface display: C, LSE70 library in lamB with patient sera 1 (551)) is reported as “C: 30” and the “Location” value [2] is reported as “aa 74-111”.

B5: ORF2098 (protein, listed as Staphylococcus epidermidis)
chain: MIKKNKEELNDMEYLVTQENGTEPPFQNEYWNHFEKGIYVDKLSGKPLFTSEDKFESNCGWPSFSKALNDDEIVELVDKSFGMIRTEVRSEKANSHLGHVFNDGPKEKGGLRYCINSAAIQFIPYDKLEELGYGDLIKHFKK
B5 was tested, and the “No. of selected clones per ORF and screen: A” value [2] was “A: 60” and the “Location” value [2] was “aa 1-57”.

B6: ORF2695 (protein, listed as Staphylococcus epidermidis)
chain: MRYLKKVTIYISLLILTIFIGGCGFINKEDSKETEIKQNFNKMLNVYPTKNLEDFYDKEGFRDEEFDKGDKGTWIIRSEMTKQPKGKIMTSRGMVLYINRNTRTAKGYFLIDEIKDDNSGRPIENEKKYPVKMNHNKIFPTKPISDDKLKKEIENFKFFVQYGDFKNLKDYKDGEISYNPNVPSYSAQYQLNNNDNNVKQLRKRYDIPTNQAPKLLLKGDGDLKGSSVGSKNLEFTFVENKEENIFFTDAVQFTPSEDDES
B6 was tested, and the “No. of selected clones per ORF and screen: A” value [2] was “A: 7” and the “Location” value [2] was “aa 22-78”.

B7: ORF2669 (protein, listed as Staphylococcus epidermidis)
chain: MHYLKKVTIYISLLILVSGCGDSKETEIKQNFNKMLNVYPTKNLEDFYDKEGYRDEEFDKDDKGTWIIRSEMTKQPKGKIMTSKGMVLHMNRNTRSTTGYYVIRKISEDNKSEIDDEEKKYPIKMVNNKIIPTQKINDNKLKNEIENFKFFVQYGSFKNSDDYKEGDIEYNPNAPNYSAQYHLSNDDYNIKQLRKRYDIKTKKTPRLLMRGAGDPKGSSVGYKNLEFTFVKNNEENIYFTDSINFNPSKGKSL
For B7, the “No. of selected clones per ORF and screen: A” value [2] was “A: 14,”, the “No. of selected clones per ORF and screen: B” value [2] was “B: 8” and the “Location” value [2] was “aa 22-81”.

B8: ORF2673 (protein, listed as Staphylococcus epidermidis)
chain: MRYLKKVTIYISLLILVSGCGNGKETEIKQNFNKMLDMYPTKNLEDFYDKEGYRDEEFDKKDKGTWIVGSTMTIEPKGKYMESRGMFLYINRNTRTTKGYYYVRKTTDDSKGRLKDDEKRYPVKMEHNKIIPTKPIPNDKLKKEIENFKFFVQYGDFKNLKDYKDGDISYNPNVPSYSAKYQLSNNDYNVKQLRKRYDIPTNQAPKLLLKGDGDLKGSSIGSKSLEFTFIENKEENIFFSDGVQFTPSEDSES
In the case of B8, the “No. of selected clones per ORF and screen: A” value [2] is reported as “A: 16,”, the “No. of selected clones per ORF and screen: B” value [2] is reported as “B: 3” and the “Location” value [2] is reported as “aa 23-68”.

B9: ORF2260 (protein, listed as Staphylococcus epidermidis)
chain: MARIATKLGYPESNSFVTNTVIEFVLHNEAYPRLYRIKTRDTNLIKISQANEISRQITNGTMTLEEAKYQLEEIYVAKRDSSLPFKGIAAAIIATSFLYLQGGRLVDIITAVLAGTIGYLVVEILDRKLHAQFIPEFIGSLVIGIISVIGHAFVPSGDLATIIIAAVMPIVPGVLITNAIQDLFGGHMLMFTTKSLEALVTAFGIGAGVSSILILV
For B9, the “No. of selected clones per ORF and screen: B” value [2] was “B: 4” and the “Location” value [2] was “aa 123-142”.
